Data as given in PubChem BioAssay AID504761 (Drosophila RNAi Screening Center, 2011).
The screen tested about 22,000 reagents; shown is an unselected part of those with a known target gene and a result. Over the whole deposit, 116 (0.52%) got an active call. 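Calls depend on retest data that are not deposited; infection was ranked per plate without normalising between plates; the unit of the infection score is not given.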 Raw values are not corrected between plates. Entries without a mark were called inactive. Names joined by + are all predicted targets of the reagent. Not stated in the record: the amount of reagent, the time to read-out.

Screen: 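Insect host genes that dengue virus relies on to spread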 (primary screen)
Cells: D.Mel-2 cells from Drosophila
Reagent: long dsRNA against Drosophila genes
Conditions: infection with dengue virus type 2; dose and infection time not stated
Detection: 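Per well on two replicate plates, imaging gave the percent of cells positive for viral envelope protein, ranked by infection, and a nuclear count of cells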
Direction: infection score: higher = more virus-infected cells; cell count: higher = more cells in the well
Hit rule: 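Very low infection ranking in both replicate wells (chance probability at most 0.065), then a retest showing infection dropped 1.5-fold or more at p below 0.05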
Meaning of the calls: active = confirmed: knock-down lowers infection; inactive = not picked or not confirmed

no.	Target gene	dsRNA	infection score, replicate 1	infection score, replicate 2	cell count, replicate 1	cell count, replicate 2
1	CG11902 (GeneID 43070)	DRSC14434	0.77	2.1	5698	6036
2	CG11902 (GeneID 43070)	DRSC28805	6.04	5.23	2035	1894
3	CG32834 (GeneID 318238)	DRSC21929	4.98	10.9	6327	5433
4	CG32834 (GeneID 318238)	DRSC28346	12.9	4.94	6255	5987
5	CG4073 (GeneID 41284)	DRSC15542	1.83	6	6235	6001
6	GluRS-m (GeneID 39828)	DRSC10431	2.15	4.2	6292	6212
7	GluRS-m (GeneID 39828)	DRSC26953	7.41	3.29	6167	6322
8	Or59c (GeneID 37716)	DRSC04633	16.3	13.9	5998	6404
9	CG9297 (GeneID 41688)	DRSC16469	15.6	15.9	4922	5550
10	CG9297 (GeneID 41688)	DRSC25256	6.3	7.44	6795	5930
11	cta (GeneID 3355131)	DRSC03769	8.72	14.4	6730	6379
12	COX7A (GeneID 50002)	DRSC16514	11.1	10.9	6031	6443
13	Wdr24 (GeneID 43505)	DRSC14151	7.36	5.12	6236	6618
14	CG42299 + CG42300	DRSC19680	1.26	1.79	6333	6714
15	CG42299 + CG42300	DRSC19815	1.16	6.28	6650	6497
16	CG17078 (GeneID 33195)	DRSC00484	1.7	2.42	6547	6870
17	CG17078 (GeneID 33195)	DRSC24862	2.67	10	5960	5690
18	CG18823 (GeneID 59184)	DRSC18168	1.55	3.83	6395	6244
19	CG31875 (GeneID 318996)	DRSC21975	5.64	4.65	6701	7014
20	CG32236 (GeneID 249170)	DRSC08117		0.2	894	6032
21	ThrRS (GeneID 45784)	DRSC02843	8.65	15.2	6092	5699
22	Dolk (GeneID 36856)	DRSC07143	13.3	4.55	6165	6622
23	Mob4 (GeneID 35576)	DRSC04993	11.7	14.7	6410	6411
24	Mob4 (GeneID 35576)	DRSC29567	19.4		3972	376
25	CG15336 (GeneID 31742)	DRSC18019	1.22	1.91	6466	6704
26	CG15336 (GeneID 31742)	DRSC28008	9.53	4.99	6351	6710
27	Best3 (GeneID 39661)	DRSC09880	1.26	1.17	5652	6088

Next part; the last 6 above are carried over.
no.	Target gene	dsRNA	infection score, replicate 1	infection score, replicate 2	cell count, replicate 1	cell count, replicate 2
22	Dolk (GeneID 36856)	DRSC07143	13.3	4.55	6165	6622
23	Mob4 (GeneID 35576)	DRSC04993	11.7	14.7	6410	6411
24	Mob4 (GeneID 35576)	DRSC29567	19.4		3972	376
25	CG15336 (GeneID 31742)	DRSC18019	1.22	1.91	6466	6704
26	CG15336 (GeneID 31742)	DRSC28008	9.53	4.99	6351	6710
27	Best3 (GeneID 39661)	DRSC09880	1.26	1.17	5652	6088
28	SIFaR (GeneID 42530)	DRSC13467	6.18	2.66	6455	5930
29	SIFaR (GeneID 42530)	DRSC14266	5.31	1.2	6272	6024
30	FLASH (GeneID 36455)	DRSC06872	5.03	0.78	6427	6879
31	FLASH (GeneID 36455)	DRSC26747	2.23	11.5	6186	6447
32	CG17612 (GeneID 33639)	DRSC00505	5.69	18.8	6080	4458
33	CG17612 (GeneID 33639)	DRSC28366	15.2	19.7	5171	3406
34	pad (GeneID 41981)	DRSC14227	4.53	12.2	6110	6163
35	pad (GeneID 41981)	DRSC26048	11.9	1.9	5986	6045
36	xit (GeneID 31623)	DRSC18364	1.82	8.76	6328	6896
37	CG17977 (GeneID 50251)	DRSC06700	2.57	9.59	6490	6217
38	r-cup (GeneID 33075)	DRSC20475	8.34	3.98	5920	5459
39	CG31007 (GeneID 318553)	DRSC14029	0.89	0.87	6281	5858
40	CG31007 (GeneID 318553)	DRSC28221	10.1	10.9	2578	4965
41	Cpr76Bb (GeneID 40121)	DRSC11061	1.4	2.88	6572	6226
42	Cpr76Bb (GeneID 40121)	DRSC22870	2.58		5035	374
43	Cpr76Bb (GeneID 40121)	DRSC25530	3.93	2.11	6797	6252
44	CG9184 (GeneID 38152)	DRSC08636	4.39	2.39	7327	7583
45	CG9184 (GeneID 38152)	DRSC22184	0.94	0.49	6986	6477
46	CG9184 (GeneID 38152)	DRSC23765	6.06	12.4	6735	5918
47	verm (GeneID 40149)	DRSC11038	2.14	21.5	6410	5954
48	verm (GeneID 40149)	DRSC24665	2.93	5.67	6423	6087
49	CR9337 (GeneID 3885658)	DRSC03212	8.61	21.7	6379	2079
50	CR9337 (GeneID 3885658)	DRSC29798	27.8	7.14	5801	6386
51	Mov10 (GeneID 36922)	DRSC07012	9.21	9.36	6678	6454
52	Mco1 (GeneID 34258)	DRSC02720			528	605
53	CG15576 (GeneID 31369)	DRSC18064	6.16	0.44	5713	7247
54	Acp32CD (GeneID 34531)	DRSC01858	1.45	1.29	6642	6491
55	Acp32CD (GeneID 34531)	DRSC23817	6.2	12.1	5593	6248
56	Pph13 (GeneID 33239)	DRSC23162	1.89	18.8	6680	5150
57	Pph13 (GeneID 33239)	DRSC29483		4.53	415	707
58	Cyp9f3 (GeneID 3772405)	DRSC16636	23.7	15	3277	5154
59	Cyp9f3 (GeneID 3772405)	DRSC25711	3.49	0.83	6650	6536
